Values of other authors, collected in PMC10467137, “In Silico–Ex Vitro Iteration Strategy for Affinity Maturation of Anti-Ricin Peptides and the SPR Biosensing Application” (2023).
Structures were worked out from names or drawings and are uncertain.

Molecular target: ricin (Ricinus communis, UniProt P02879)
Conditions: cited from earlier work

For `CC[C@H](C)[C@H](NC(=O)[C@H](CCC(=O)O)NC(=O)[C@H](CO)NC(=O)[C@H](Cc1c[nH]cn1)NC(=O)[C@H](Cc1c[nH]cn1)NC(=O)[C@H](Cc1c[nH]cn1)NC(=O)[C@H](CCCNC(=N)N)NC(=O)[C@H](Cc1c[nH]cn1)NC(=O)[C@@H]1CCCN1C(=O)[C@@H](N)Cc1c[nH]c2ccccc12)C(=O)NCC(=O)N[C@@H](Cc1c[nH]cn1)C(=O)O`, the Kd is listed as 1000 nM.
